Pooled drug test results. Numbers come from NIAID ChemDB, via PubChem.

All rows: tests in culture; species: Vesicular stomatitis virus; read by: cytopathic effect; endpoint: EC50

ECn is the concentration giving n% inhibition of infection, replication or growth. Rows are shuffled and stem from different studies. An empty or dashed field is not shown.

smiles,cells,result
Nc1nc2c(nc(N)n2COCCO)c(=O)[nH]1,PRK,>400 µg/mL
Cc1cn([C@@H]2OC[C@H](CO)[C@H]2O)c(=O)[nH]c1=O,HeLa,>80 µg/mL
O=c1[nH]c(=O)n([C@H]2C[C@H](O)[C@@H](CO)S2)cc1C1CCCCC1,E6SM,>1200 µM
Nc1nc(-n2c(-c3ccccc3)nc3ccc(Br)cc3c2=O)nnc1-c1cccc(Cl)c1Cl,HeLa,>16 µg/mL
O=c1c2ncn(COC(CO)CO)c2nc2[nH]c(-c3ccccc3)cn12,-,>175 µg/mL
[N-]=[N+]=N[C@H]1[C@@H](O)[C@H](n2cnc3c(N)ncnc32)O[C@@H]1CO,PRK,≥40 µg/mL
O=c1[nH]c(=O)n(COCCO)cc1Br,PRK,>400 µg/mL
CCc1cc([C@H]2C[C@H](O)[C@@H](CO)O2)c(F)cc1F,E6SM,>400 µg/mL
NC(=O)c1cncc([C@@H]2O[C@H](CO)[C@@H](O)[C@@H]2O)c1,E6SM,≥100 µg/mL
Cc1[nH]c2nc3c(ncn3COCCO[Si](C)(C)C(C)(C)C)c(=O)n2c1C(c1ccccc1)(c1ccccc1)c1ccccc1,-,>10 µg/mL
CCOc1cc(O)c(C(=O)/C=C/c2ccc(OC)cc2)c(OC)c1,HeLa,>3 µg/mL
NC(=O)c1cncc([C@H]2O[C@H](CO)[C@H](O)[C@@H]2O)c1,E6SM,≥100 µg/mL
Nc1ccn([C@@H]2O[C@H](CO)[C@@H](O)[C@H]2N)c(=O)n1,PRK,150 µg/mL
Nc1nc2c(ncn2[C@@H]2CO[C@H](CO)[C@@H](O)C2)c(=O)[nH]1,ESM,>200 µg/mL
[N-]=[N+]=N[C@@H]1[C@H](O)[C@@H](CO)O[C@H]1n1ccc(N)nc1=O,PRK,>200 µg/mL
COC[C@H]1O[C@@H](n2cnc3c(N)ncnc32)[C@H](O)[C@@H]1O,PRK,>100 µg/mL
O=c1[nH]c(=O)n([C@@H]2OC3COP(=O)(O)OC3[C@H]2O)cc1I,PRK,>400 µg/mL
Nc1nc(F)nc2c1ncn2[C@@H]1C=C(CO)[C@@H](O)[C@H]1O,HeLa,0.4 µg/mL
CCc1nc(-n2c(C)nc3ccc(Br)cc3c2=O)nc(N)c1-c1ccc(Cl)cc1,E6SM,>16 µg/mL
Nc1ncnc2c1ncn2[C@H]1C[C@H](O)[C@@H](CO)O1,PRK,>200 µg/mL
OC[C@H]1O[C@@H](c2cc(/C=C/Br)c(F)cc2F)C[C@@H]1O,E6SM,>400 µg/mL
Nc1nc2c(ncn2[C@H]2OC[C@@H](CO)C2O)c(=O)[nH]1,E6SM,>400 µg/mL
O=c1c2ncn(COC(CO)CO)c2nc2[nH]c(-c3ccccc3)cn12,E6SM,>175 µg/mL
NC(=S)c1cncc([C@H]2O[C@H](CO)[C@@H](O)[C@@H]2O)c1,E6SM,≥100 µg/mL
Cc1cn([C@@H]2OC[C@H](CO)[C@H]2N=[N+]=[N-])c(=O)[nH]c1=O,HeLa,>80 µg/mL
O=c1[nH]c(=O)n(C2CC(O[N+](=O)[O-])C(CO)O2)cc1F,E6SM,>400 µg/mL
COc1ccc(-c2[nH]c3nc4c(ncn4COCCO)c(=O)n3c2-c2ccc(C(c3ccccc3)c3ccccc3)cc2)cc1,-,>16 µg/mL
CCCc1cn([C@H]2C[C@H](O)[C@@H](CO)O2)c(=O)[nH]c1=O,E6SM,>1500 µM
Cc1nc2ccc(Br)cc2c(=O)n1-c1nnc(-c2cccc(Cl)c2Cl)c(N)n1,E6SM,>3.2 µg/mL
O=c1c2ncn(COCCO)c2[nH]c2ncc(C(c3ccccc3)(c3ccccc3)c3ccccc3)n12,-,>16 µg/mL
CC(=O)OCCOCn1cnc2c(Cl)nc(N)nc21,PRK,>400 µg/mL
Nc1ncnc2c1ncn2C[C@H](O)CO,HeLa,70 µg/mL

The last 2 rows once more:

smiles,cells,result
CC(=O)OCCOCn1cnc2c(Cl)nc(N)nc21,PRK,>400 µg/mL
Nc1ncnc2c1ncn2C[C@H](O)CO,HeLa,70 µg/mL